From publication PMC8001737, “Isolation and Characterization of Cross-Reactive Human Monoclonal Antibodies That Potently Neutralize Australian Bat Lyssavirus Variants and Other Phylogroup 1 Lyssaviruses” (Viruses, 2021) come the findings set out here.

The experiment has as its target ABLVp glycoprotein (G), on recombinant vesicular stomatitis virus rVSV-ABLVp-G (Australian bat lyssavirus (isolate …, UniProt Q8JTH0, strain)).

B1: human monoclonal antibody A6 (IgG1) (antibody, V domains shown)
VH: EVQLVQSGAEVKKPGASVKVSCKASGYDFTDFYVHWVRQAPGQRLEWMGWINPGSGATDYAQKFQGRVTMTRDTSISTAYMEVSRLRSDDTAMYYCARPNAPRYMERLSATPSFDSWGQGTLVTVS
VL: EIVLTQSPGTLSLSPGEGATLSCRASQSVSSINLAWYQQKPGQAPRLLMYGASTRATGIPDRFSGSGSGTDFTLTISRLESEDFAVYYCQQYGSSPLTFGGGTKVEIK
As to B1, the binding result is “binds”.
